Assay results reported in paper PMC12428505 (International Journal of Molecular Sciences, 2025).

Test: general procedure: Fmoc solid-phase peptide synthesis; Rink amide resin, loading 0.53 mmol/g; HBTU (3 equiv) / DIEA (6 equiv) in DMF
Conditions: 210 nm

Row | Substance | final HPLC purity (conjugation step) [%] | final HPLC purity (whole synthesis, run 1)
1 | CmX-PEG4--DKEWILQKIYELMRILDELGHAEASMRVEDLIYEFMK-CONH2 | 98 | 
2 | PEPTIDE1{[ac].D.K.E.W.I.L.Q.K.I.Y.E.L.M.R.I.L.D.E.L.G.H.A.E.A.S.M.R.V.E.D.L.I.Y.E.F.M.K.[am]}$$$$V2.0 |  | 99% and 97%

Where “and” joins values, the source holds several entries; their conditions need not be identical. Equal entries are not always repeated. Strings that start with PEPTIDE1 are HELM notation: dots part the residues, brackets hold end groups and non-standard residues.
